Results of unrelated studies side by side (data: NIAID ChemDB).

All rows: growth or infection tests; species: Candida albicans; measure: MIC

An empty or dashed field is not shown.

| structure | strain or isolate | value |
|---|---|---|
| CCOC(=O)C1C(=O)C=C(c2ccc(Cl)cc2)CC1c1ccc(C2CC(c3ccc(Cl)cc3)=CC(=O)C2C(=O)OCC)cc1 | Clinical isolate | 12.5 µg/mL |
| Cc1cc(=O)c(OCc2ccccc2)cn1CCC1=NCCS1 | - | 100 µg/mL |
| c1ccc(C(c2ccccc2)(c2ccccc2)n2ccnc2)cc1 | - | 0.5 µM |
| OCCNc1nnc2c(cnc3ccccc32)n1 | M-3 | 40 µg/mL |
| C1=NCCCN1Cc1ccccc1.Cc1ccc(C(C)C)cc1.[Cl][Ru][Cl] | - | 400 µg/mL |
| O=c1ccn(CCC2=NCCS2)cc1OCc1ccccc1 | - | 75 µg/mL |
| O=C(CC1CCCCC1)Nc1ccc2oc(-c3ccc(F)cc3)nc2c1 | - | 25 µg/mL |
| Cc1ccc(C2=NN(S(C)(=O)=O)C(c3cn(-c4ccccc4)nc3-c3ccc(Br)s3)C2)cc1 | - | >200 µg/mL |
| Cn1cc(C(=O)c2ccc([N+](=O)[O-])cc2)cc1/C=C/C(=O)O | - | >15 µg/mL |
| COc1c(CN(C)C)cccc1C1OC(c2ccncc2)=NN1C(C)=Nc1ccccc1F | MTCC 227 | 3.12 µg/mL |
| C[C@H]1[C@H](O)[C@@H](C)/C=C/C=C/C=C/C=C/C=C/C=C/C=C/[C@H](O[C@@H]2O[C@H](C)[C@@H](O)[C@H](N)[C@@H]2O)C[C@@H]2O[C@](O)(C[C@@H](O)C[C@@H](O)CC[C@H](O)[C@@H](O)C[C@@H](O)CC(=O)O[C@H]1C)C[C@H](O)[C@H]2C(=O)O | - | 40 µg/mL |
| CCCCCOc1ccc(-c2ccc(-c3ccc(C(=O)N[C@H]4C[C@@H](O)[C@@H](O)NC(=O)[C@@H]5[C@@H](O)[C@@H](C)CN5C(=O)[C@H]([C@H](C)O)NC(=O)[C@H]([C@H](O)[C@@H](O)c5ccc(O)cc5)NC(=O)[C@@H]5C[C@@H](O)CN5C(=O)[C@H]([C@H](C)O)NC4=O)cc3)cc2)cc1 | Y58 | 0.04 µg/mL |
| O=C(Cc1ccc([N+](=O)[O-])cc1)Nc1ccc2oc(-c3ccc(F)cc3)nc2c1 | RSKK 628 | 12.5 µg/mL |
| C[C@]12CC[C@H](O)CC1=CCC1=C2CC[C@]2(C)CCCC12 | IP 1180.79 | >250 µM |
| C(=C\COc1ccc(C2=NCCN2)cc1)/COc1ccc(C2=NCCN2)cc1 | B311 | 6.25 µg/mL |
| O=C(Nc1c(F)cccc1F)OCCCN1CCN(c2nc3ccccc3s2)CC1 | ATCC48130 | 0.26 µg/mL |
| Clc1ccccc1C(c1ccccc1)(c1ccccc1)n1ccnc1 | - | 2 µg/mL |
| C#CC#CC#CC#C/C=C/C=C/C(O)CCCCC(=O)O | - | 0.05 µg/mL |
| COCCN1CCN(CCOC)[C]1=[Ru]([Cl])[Cl].Cc1c(C)c(C)c(C)c(C)c1C | - | >800 µg/mL |
| CCC(C)n1ncn(-c2ccc(N3CCN(c4ccc(OC[C@H]5CO[C@](Cn6cncn6)(c6ccc(Cl)cc6Cl)O5)cc4)CC3)cc2)c1=O | E81022 | 0.025 µg/mL |
| CCn1cnc2ccccc21.Cc1c(C)c(C)c(C)c(C)c1C.[Cl][Ru][Cl] | - | 400 µg/mL |
| Cc1cc(NC(=O)c2ccccc2NC(=O)COc2cccc(Cl)c2Cl)no1 | ATCC 10231 | >100 µg/mL |
| COc1ccc(C(c2ccccc2)(c2ccc(OC)cc2)n2cnc3ccccc32)cc1 | - | 1 µM |
| CC(C)=C[C@H]1C[C@](C)(O)C2C3CCC4[C@@]5(C)CCC[C@](C)(O[C@H]6OC[C@H](O)[C@H](OC7O[C@H](CO)[C@@H](O)[C@H](O)[C@H]7OC(=O)/C=C/c7ccc(OC(=O)CC(=O)O)cc7)[C@H]6O[C@H]6C[C@H](CO)[C@@H](O)[C@@H]6O)C5CC[C@@]4(C)[C@@]34CO[C@@]2(C4)O1 | - | >50 µg/mL |
| C[C@H]1[C@H](O)[C@@H](C)/C=C/C=C/C=C/C=C/C=C/C=C/C=C/[C@H](O[C@@H]2O[C@H](C)[C@@H](O)[C@H](N)[C@@H]2O)C[C@@H]2O[C@](O)(C[C@@H](O)C[C@@H](O)CC[C@H](O)[C@@H](O)C[C@@H](O)CC(=O)O[C@H]1C)C[C@H](O)[C@H]2C(=O)O | - | 8 µg/mL |
| CCOC(=O)C1C(=O)C=C(c2ccc(OC)cc2)CC1c1ccc(C2CC(c3ccc(OC)cc3)=CC(=O)C2C(=O)OCC)cc1 | Clinical isolate | 12.5 µg/mL |
| Clc1ccc(-c2csc(N3N=C(c4cccs4)CC3c3ccc(Cl)cc3)n2)cc1 | Clinical isolates | 125 µg/mL |
| Cc1cc(NC(=O)c2ccc(NC(=O)COc3ccccc3)cc2)no1 | ATCC 10231 | >100 µg/mL |
| C(=C/COc1ccc(C2=NCCN2)cc1)/COc1ccc(C2=NCCN2)cc1 | B311 | 6.25 µg/mL |
| CN1C(c2ccccc2)CC2(CC1c1ccccc1)NNC(=S)N2 | - | 100 µg/mL |
| Cc1cc(NC(=O)c2ccccc2NC(=O)COc2ccccc2)no1 | ATCC 10231 | >100 µg/mL |
| CC(=O)NNC(=O)NCCCCCCNC(=O)NNC(C)=O | ATCC 90028 | 7.5 µg/mL |
| COc1ccc(C2NC(=S)Nc3n[nH]c(C(C)C)c32)cc1OC | ATCC 10231 | 312.5 µg/mL |
| Cc1c(OCc2ccccc2)c(=O)ccn1CC1=NCCS1 | - | 100 µg/mL |
| C[C@H]1[C@H](O)[C@@H](C)/C=C/C=C/C=C/C=C/C=C/C=C/C=C/[C@H](O[C@@H]2O[C@H](C)[C@@H](O)[C@H](N)[C@@H]2O)C[C@@H]2O[C@](O)(C[C@@H](O)C[C@@H](O)CC[C@H](O)[C@@H](O)C[C@@H](O)CC(=O)O[C@H]1C)C[C@H](O)[C@H]2C(=O)O | 315 | 1 µg/mL |
| COCCn1c(-c2ccccc2)nc(=S)c(C(C)=O)c1O | - | >100 µg/mL |
| O=C(Nc1ccc2oc(-c3ccc(F)cc3)nc2c1)c1ccccc1 | RSKK 628 | 25 µg/mL |
| CCOC(=O)c1c(O)n(Cc2ccccc2)c(-c2ccccc2)nc1=S | - | 100 µg/mL |
| CCOC(=O)/C=C/c1cc(C(=O)c2ccccc2)cn1C | - | >4 µg/mL |
| CCCCCCC#CCCCCCC#CC(=O)O | ATCC 60913 | 2235 µM |
| Cn1cc(C(=O)c2ccc(Cl)cc2)cc1/C=C/C(=O)O | - | >30 µg/mL |
| Cc1ccc(OCC(=O)Nc2ccccc2C(=O)Nc2cc(C)on2)cc1 | ATCC 10231 | >100 µg/mL |
| COc1ccc(C2CC(c3cccs3)=NN2c2nc(-c3ccccc3)cs2)cc1 | Clinical isolates | 62.5 µg/mL |
| Cc1ccc(C2CC3(NNC(=S)N3)C(C)C(c3ccc(C)cc3)N2C)cc1 | - | 200 µg/mL |
| Cn1cc(C(=O)c2ccc(Cl)cc2)cc1/C=C/C(=O)NO | - | >15 µg/mL |
| CN(C)c1ccc(-c2nc3cc(NC(=O)SCc4ccccc4)ccc3o2)cc1 | RSKK 628 | 25 µg/mL |
| CCCCn1c(-c2ccccc2)nc(=S)c(C(C)=O)c1O | - | >100 µg/mL |
| Cc1ccc(C2CC(c3cccs3)=NN2c2nc(-c3ccc(Cl)cc3)cs2)cc1 | Clinical isolates | 125 µg/mL |
| CCCCCCCCCCCCC(C)(O)C1CC(=O)NC(CO)C(=O)N[C@H](C)C(=O)NC(CC(=O)O)C(=O)NC(CC(N)=O)C(=O)NC(CC(N)=O)C(=O)NC(CO)C(=O)NC([C@@H](C)O)C(=O)O1 | ATCC10259 | 32 µg/mL |
| COc1ccc(C2CC3(NNC(=S)N3)C(C)C(c3ccc(OC)cc3)N2C)cc1 | - | 25 µg/mL |
| CC[C@@H]1[C@@H](Cn2cncn2)[C@H](COc2ccc(OC(F)(F)F)cc2)CC[C@@]1(C)CCN1CCOCC1 | CY3003 | 0.03 µg/mL |
| CCOC(=O)/C=C/c1cc(C(=O)c2ccc([N+](=O)[O-])cc2)cn1C | - | >8 µg/mL |
| COc1ccc(CN2C=Cc3cc(OC)c(OC)c4nccc2c34)cc1 | - | >64 µg/mL |
| Cc1ccc(-c2csc(N3N=C(c4cccs4)CC3c3ccc(Cl)cc3)n2)cc1 | Clinical isolates | 125 µg/mL |
| O=C(CCC1CCCCC1)Nc1ccc2oc(-c3ccc(F)cc3)nc2c1 | - | 50 µg/mL |
| COc1cc(O)c2c(c1)C(=O)c1c(cc3c(c1O)-c1c(cc(C)c(C(=O)N[C@H](C)C(=O)O)c1O)[C@H](O[C@@H]1O[C@H](C)[C@H](O)[C@H](O[C@@H]4OC[C@@H](O)[C@H](O)[C@H]4O)[C@H]1O)[C@H]3O)C2=O | TIMM1768 | 12.5 µg/mL |
| O=C(Nc1ccc2oc(-c3ccccc3)nc2c1)C1CCCCC1 | - | 25 µg/mL |
| CN1C=NCCC1.Cc1ccc(C(C)C)cc1.[Cl][Ru][Cl] | - | 200 µg/mL |
| Cc1cc(NC(=O)c2cccc(NC(=O)COc3ccc(Cl)cc3)c2)no1 | ATCC 10231 | >100 µg/mL |
| C[C@@H](c1nc(-c2ccc(C#N)cc2)cs1)[C@](O)(Cn1cncn1)c1ccc(F)cc1F | E81022 | ≤0.006 µg/mL |
| Cc1ccc(OCC(=O)Nc2cccc(C(=O)Nc3cc(C)on3)c2)cc1 | ATCC 10231 | >100 µg/mL |
| CC(C)([C@](O)(Cn1cncn1)c1ccc(C(F)(F)F)cc1)S(C)(=O)=O | 30 strains | 0.5–4 µg/mL |
| Cc1ccc(-c2cc(-c3cn(-c4ccccc4)nc3-c3ccc(Br)s3)n(-c3ccccc3)n2)cc1 | - | 200 µg/mL |
| Clc1ccc(C2CC(c3cccs3)=NN2c2nc(-c3ccccc3)cs2)cc1 | Clinical isolates | 250 µg/mL |
| CN1C(c2ccc(Cl)cc2)CC2(CC1c1ccc(Cl)cc1)NNC(=S)N2 | - | 25 µg/mL |
| Cn1cc(C(=O)c2ccccc2)cc1/C=C/C(=O)O | - | >250 µg/mL |
| O=C(NCc1ccco1)c1cccc(C(=O)NCc2ccco2)n1 | - | 75 µg/mL |
| COc1ccc(C(=O)c2cc(/C=C/C(=O)O)n(C)c2)cc1 | - | >500 µg/mL |
| Cc1cc(=O)c(O)cn1CCC1=NCCS1 | - | 50 µg/mL |
| CCOC(=O)/C=C/c1cc(C(=O)c2ccc(-n3ccnc3)cc2)cn1C | - | >30 µg/mL |
| CCCCCOc1ccc(-c2cc(-c3ccc(C(=O)N[C@H]4C[C@@H](O)[C@@H](O)NC(=O)[C@@H]5[C@@H](O)[C@@H](C)CN5C(=O)[C@H]([C@H](O)CC(N)=O)NC(=O)[C@H]([C@H](O)[C@@H](O)c5ccc(O)c(OS(=O)(=O)O)c5)NC(=O)[C@@H]5C[C@@H](O)CN5C(=O)[C@H]([C@@H](C)O)NC4=O)cc3)no2)cc1 | ATCC 90028 | 0.0156 µg/mL |
| CCOC(=O)C1C(=O)C=C(c2ccc(Br)cc2)CC1c1ccc(C2CC(c3ccc(Br)cc3)=CC(=O)C2C(=O)OCC)cc1 | Clinical isolate | 12.5 µg/mL |
| CC(=O)N1N=C(c2ccc(C)cc2)CC1c1cn(-c2ccccc2)nc1-c1ccc(Br)s1 | - | >200 µg/mL |
| Cn1cc(C(=O)c2ccc(-n3ccnc3)cc2)cc1/C=C/C(=O)O | - | >125 µg/mL |
| O=C(O)c1cccc(C(=O)Nc2ccccc2)n1 | - | 37.5 µg/mL |
| O=C(Nc1ccc2oc(-c3ccc(F)cc3)nc2c1)C1CCCCC1 | - | 12.5 µg/mL |
| O=C1CC(Sc2ccccn2)N1 | - | 8–64 µg/mL |
| Cc1c(O)cccc1C(=O)N[C@@H](CSc1ccccc1)[C@H](O)CN1C[C@H]2CCCC[C@H]2C[C@H]1C(=O)NC(C)(C)C | I158E | 64 µg/mL |
| O=C(Nc1ccc2oc(-c3ccc(F)cc3)nc2c1)OCc1ccc(Cl)cc1 | RSKK 628 | 50 µg/mL |

A second listing of 9 rows from above:

structure,strain or isolate,value
O=C(Nc1c(F)cccc1F)OCCCN1CCN(c2nc3ccccc3s2)CC1,ATCC48130,0.26 µg/mL
Clc1ccccc1C(c1ccccc1)(c1ccccc1)n1ccnc1,-,2 µg/mL
CCOC(=O)C1C(=O)C=C(c2ccc(Br)cc2)CC1c1ccc(C2CC(c3ccc(Br)cc3)=CC(=O)C2C(=O)OCC)cc1,Clinical isolate,12.5 µg/mL
CC(C)([C@](O)(Cn1cncn1)c1ccc(C(F)(F)F)cc1)S(C)(=O)=O,30 strains,0.5–4 µg/mL
CN1C(c2ccccc2)CC2(CC1c1ccccc1)NNC(=S)N2,-,100 µg/mL
Cn1cc(C(=O)c2ccccc2)cc1/C=C/C(=O)O,-,>250 µg/mL
COCCn1c(-c2ccccc2)nc(=S)c(C(C)=O)c1O,-,>100 µg/mL
CC[C@@H]1[C@@H](Cn2cncn2)[C@H](COc2ccc(OC(F)(F)F)cc2)CC[C@@]1(C)CCN1CCOCC1,CY3003,0.03 µg/mL
C[C@]12CC[C@H](O)CC1=CCC1=C2CC[C@]2(C)CCCC12,IP 1180.79,>250 µM

Neighbouring rows are from separate reports. Two numbers with a dash give a range or band.